The data set addresses LexAPa S125A (uncleavable mutant) (Pseudomonas aeruginosa ATCC 27853) (UniProt P37452). Put plainly: EMSA. The conditions noted are these: 8 uM LexA, 1 uM DNA, recombinant protein. For orientation: Mobility shift assays separate free from complexed probe on a gel.

The exact form of at least one protein or probe is not confirmed. At least one verdict was read from the data and is not stated in words by the source.

For the sequence “GATGCCTGCGGATACTGTATATATATACAGTATCAATTCTGGCT (double strand) [SOS-box dsDNA (AT-repeat)]”, the binding result is, setting by setting: (50 uM A12, 10% DMSO) “binds”; (100 uM A12, 10% DMSO) “binds”.

The values are drawn from paper PMC12706794, “Identification and Characterization of a Small-Molecule Inhibitor of the Pseudomonas aeruginosa SOS Response” (ACS Infectious Diseases, 2025).
